The test is described as follows: Selectivity index of IC50 and CD50 of the compound. In kind it is functional.

The text below walks through data of ChEMBL document CHEMBL1124867, “Synthesis and antiviral activity of monofluoro and difluoro analogues of pyrimidine deoxyribonucleosides against human immunodeficiency virus (HIV-1)” (J Med Chem, 1990).

On to `Cc1cn([C@H]2C[C@H](N=[N+]=[N-])[C@@H](CO)O2)c(=O)[nH]c1=O` [ZIDOVUDINE], for which the Selectivity index was > 1.2 SI.

Compound `Nc1ccn([C@H]2CC[C@@H](CO)O2)c(=O)n1` [ZALCITABINE] came in with a Selectivity index of 8 SI.

For the compound `Nc1ccn([C@@H]2O[C@H](CO)C[C@@H]2F)c(=O)n1`, the Selectivity index was 7.1 SI.

As for `Cc1cn([C@@H]2O[C@H](CO)C=C2F)c(=O)[nH]c1=O`, the Selectivity index was > 10 SI.

In turn, `Nc1ccn([C@@H]2O[C@H](CO)C=C2F)c(=O)n1` displayed a Selectivity index of 3 SI.

For the compound `Nc1ccn(C2OC(CO)C(F)C2F)c(=O)n1` (stereo unspecified), the Selectivity index was > 10 SI.
